Where two headings read alike, the source gives them in different places.
What was measured:
[1] = molecular target: T1, HIV-1 protease (Human immunodeficiency virus type 1 group M subtype B, UniProt P04585); assay: biochemical
Procedure: (§1) HIV-1 protease was obtained and its active site concentration was determined at 25° C. Purified enzyme was stored as a 5-8 μM stock solution in 50 mM NaOAc (pH 5.0), 1 mM DTT, 1 mM EDTA, 0.05% reduced Triton X-100 at -80° C. Porcine pepsin was prepared as 1-2 mg/ml in 50 mM formic acid (pH 3.0). The peptide concentrations were adjusted for their protein content.
HIV-1 protease activity was measured at 25° C. using substrate I (Lys-Ala-Arg-Val-Nle-Phe (NO2) -Glu-Ala-Nle-NH2 wherein Nle is norleucine and Phe (NO2) is 4-nitrophenylalamine). In a typical assay, 2.5 μl of enzyme was added to 97.5 μl of buffer and 2.5 mM DTT in the presence or absence of varying concentrations of inhibitor. The reaction was initiated by the addition of 10 μl of a 4 mM solution of substrate I in water and monitored by following the decrease in absorption at […] in a 100 μl spectrophotometric cell. Pepsin was assayed using substrate II (Phe-Gly-His-Phe(NO2)-Phe-Ala-PheOCH3). […] Concentrations of substrate solutions were determined spectrophotometrically at […].
The enzyme was assayed in the presence of the inhibitor in 50 mM sodium formate at pH 4.25 and 2.5 mM DTT. […] Peptides 12a and 12b were assayed at pH 4.4 and contained 0.083% and 0.02% DMSO, respectively.

Chains of the proteins cited; added tags and fusions are not shown. Residues count along the entry.
UniProt P00791, 60-385: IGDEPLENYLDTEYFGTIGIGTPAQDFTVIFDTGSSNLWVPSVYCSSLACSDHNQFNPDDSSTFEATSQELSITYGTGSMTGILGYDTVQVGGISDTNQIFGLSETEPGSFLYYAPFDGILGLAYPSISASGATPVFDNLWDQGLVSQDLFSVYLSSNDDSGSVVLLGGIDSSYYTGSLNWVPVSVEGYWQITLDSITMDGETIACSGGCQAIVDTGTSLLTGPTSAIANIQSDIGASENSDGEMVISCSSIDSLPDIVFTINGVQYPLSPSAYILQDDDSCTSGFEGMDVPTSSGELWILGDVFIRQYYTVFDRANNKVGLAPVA

[2] = molecular target: T2, Porcine pepsin (Sus scrofa, UniProt P00791); assay: Inhibition of pepsin (substrate II); type: biochemical; conditions: fold higher for pepsin
T2 construct: porcine pepsinogen is converted to enzymatically active pepsin by loss of the first 44 N-terminal residues
Procedure: as §1
HIV-1 protease activity was measured at 25° C. using substrate I (Lys-Ala-Arg-Val-Nle-Phe (NO2) -Glu-Ala-Nle-NH2 wherein Nle is norleucine and Phe (NO2) is 4-nitrophenylalamine). In a typical assay, 2.5 μl of enzyme was added to 97.5 μl of buffer and 2.5 mM DTT in the presence or absence of varying concentrations of inhibitor. The reaction was initiated by the addition of 10 μl of a 4 mM solution of substrate I in water and monitored by following the decrease in absorption at […] in a 100 μl spectrophotometric cell. Pepsin was assayed using substrate II (Phe-Gly-His-Phe(NO2)-Phe-Ala-PheOCH3). The reaction was monitored by following the decrease in absorbance at 269 nm in a final volume of 110 μl of 50 mM formate buffer, pH 3.0, containing 150 mM and 160 μM enzyme and substrate, respectively, at 25° C. Concentrations of substrate solutions were determined spectrophotometrically at […].
Such selective inhibition facilitates treatment of HIV infected mammalian cells.

[3] = molecular target: T1, HIV-1 protease; assay: biochemical; conditions: 1M NaCl, 50 mM sodium formate, pH 4.0, 2.5 mM DTT, 25° C.
[4] = system: HIV-1; conditions: 2 mM, p24 band

SMILES: CC(C)C[C@H](NC(=O)[C@H](CC(=O)O)NC(=O)[C@@H](N)CCC(=O)O)C(=O)O [Peptide 4, Glu--Asp--Leu]
- Ki ([1]; 50 mM sodium formate pH 4.25, 2.5 mM DTT, substrate I 390 μM, 25° C., peptides 1, 2, 4 from apparent Km vs [I], others from 1/V vs [I]): 50 ± 9 µM
- Ki ([1]; 2M NaCl, 50 mM sodium formate, pH 4.0, 2.5 mM DTT, 25° C.): 1000 ± 170 µM
- Ki ([1]; NaCl 0 M, 50 mM sodium formate pH 4.25, 2.5 mM DTT, 1/V vs [I]): 52 ± 10 µM
- Ki ([1]; NaCl 1 M, 50 mM sodium formate pH 4.25, 2.5 mM DTT, 1/V vs [I]): 435 ± 65 µM
- Ki ([1]; NaCl 2 M, 50 mM sodium formate pH 4.25, 2.5 mM DTT, 1/V vs [I]): 1000 ± 170 µM
- Ki for pepsin relative to Ki for HIV protease [2]: about 150 fold
- Ki [3]: 435 ± 65 µM
- reduction of Gag processing ([4]; cell-extracted samples): 50%
- reduction of Gag processing ([4]; supernatant samples): 70%

Source: US5872210A (priority 1995, dated 1999)
